Compound potency records, mixed from different reports. Data source: NIAID ChemDB in PubChem.

Common to all: whole-cell or culture tests; species: HIV-2; read by: cytopathic effect / MTT; endpoint: EC50

ECn: concentration that inhibits the pathogen or its effect by n%.

compound,mutations,strain or isolate,cells,result
Cc1cn([C@H]2C[C@H](N=[N+]=[N-])[C@@H](CO)O2)c(=O)[nH]c1=O,-,ROD,MT-4,0.0006 µg/mL
FC(F)(F)c1ccc2nc3n(c2c1)C(c1c(Cl)cccc1Cl)SC3,-,ROD,MT-4,>19.3 µM
C[C@H](CCC(=O)NCCS(=O)(=O)O)[C@H]1CC[C@H]2[C@@H]3CC[C@@H]4C[C@H](O)CC[C@]4(C)C3CC[C@]12C,-,ROD,MT-4,>194 µg/mL
C1CNCCNCCCN(CCCN2CCCNCCNCCCNCC2)CCNC1,-,EHO,MT-4,1.37 µM
NOCc1c(F)cccc1Cl,-,EHO,MT-4,6.6 µg/mL
Nc1ccn([C@H]2CC[C@@H](CO)O2)c(=O)n1,-,ROD,MT-4,0.058 µg/mL
Cc1cn([C@H]2C[C@H](N=[N+]=[N-])[C@@H](CO)O2)c(=O)[nH]c1=O,-,ROD,MT-4,0.0007 µM
Nc1nc(Nc2ccccc2)c2ncn(CCOCP(=O)(O)O)c2n1,-,ROD,MT-4,35.1 µg/mL
C(CCCN1CCCNCCNCCCNCC1)CCN1CCCNCCNCCCNCC1,-,ROD,MT-4,0.616 µM
Fc1cccc(F)c1C1OCc2nc3ccccc3n21,-,ROD,MT-4,>27.7 µM
O=c1ccn([C@H]2CC[C@@H](CO)O2)c(=O)[nH]1,-,ROD,MT-4,43 µg/mL
C1CNCCNCCCN[C@@H]([C@H]2CNCCCNCCNCCCN2)CNC1,-,ROD,MT-4,0.62 µg/mL
CCN(C)c1nc(N)nc2c1ncn2CCOCP(=O)(O)O,-,ROD,CEM,0.2 µg/mL
C1CNCCNCCCN[C@H]([C@H]2CNCCCNCCNCCCN2)CNC1,-,ROD,MT-4,0.32 µg/mL
Nc1ncnc2c1ncn2CCOCP(=O)(O)O,-,-,MT-4,3.7 µM
CCOCn1c(Cc2ccccc2)c(C(C)C)c(=O)[nH]c1=O,RT-S102L E219D,EHO,MT-4,127.8 µM
C=COC(=O)OC[C@@H]1C=C[C@H](n2cc(C)c(=O)[nH]c2=O)O1,-,ROD,MT-4,0.057 µM
Cc1cn([C@H]2C[C@H](N=C(NC#N)Oc3ccccc3)[C@@H](CO)O2)c(=O)[nH]c1=O,-,ROD,CEM,35 µg/mL
Cc1cn([C@H]2C[C@H](N=[N+]=[N-])[C@@H](COC(=O)CCC(=O)OC[C@H]3O[C@@H]4O[C@H]5[C@H](O)[C@@H](O)[C@@H](O[C@H]6[C@H](O)[C@@H](O)[C@@H](O[C@H]7[C@H](O)[C@@H](O)[C@@H](O[C@H]8[C@H](O)[C@@H](O)[C@@H](O[C@H]9[C@H](O)[C@@H](O)[C@@H](O[C@H]3[C@H](O)[C@H]4O)O[C@@H]9CO)O[C@@H]8CO)O[C@@H]7CO)O[C@@H]6CO)O[C@@H]5CO)O2)c(=O)[nH]c1=O,-,ROD,MT-4,0.042 µg/mL
Fc1cc2nc3n(c2cc1F)C(c1c(Cl)cccc1Cl)SC3,-,ROD,MT-4,>17.6 µM
C1CNCCNCCCN[C@H]([C@H]2CNCCCNCCNCCCN2)CNC1,-,ROD,MT-4,0.32 µg/mL
Nc1nc(NCCc2ccccc2)c2ncn(CCOCP(=O)(O)O)c2n1,-,ROD,CEM,12.5 µg/mL
CCOCn1c(Cc2cc(C)cc(C)c2)c(CC)c(=O)[nH]c1=O,-,EHO,MT-4,>249 µM
Nc1nc(N2CCOCC2)c2ncn(CCOCP(=O)(O)O)c2n1,-,ROD,MT-4,16 µg/mL
Cc1cn([C@H]2C[C@H](N=[N+]=[N-])[C@@H](COC(=O)CCC(=O)OCC3OC4OC5C(COS(=O)(=O)O)OC(OC6C(COS(=O)(=O)O)OC(OC7C(COS(=O)(=O)O)OC(OC8C(COS(=O)(=O)O)OC(OC9C(COS(=O)(=O)O)OC(OC3C(OS(=O)(=O)O)C4OS(=O)(=O)O)C(OS(=O)(=O)O)C9OS(=O)(=O)O)C(OS(=O)(=O)O)C8OS(=O)(=O)O)C(OS(=O)(=O)O)C7OS(=O)(=O)O)C(OS(=O)(=O)O)C6OS(=O)(=O)O)C(OS(=O)(=O)O)C5OS(=O)(=O)O)O2)c(=O)[nH]c1=O,-,ROD,MT-4,3.69 µg/mL
COc1ccc(S(=O)(=O)N(CC(C)C)C[C@@H](O)[C@H](Cc2ccccc2)NC(=O)O[C@H]2CO[C@H]3OCC[C@H]32)cc1,-,EHO Laboratory isolate,MT-2,0.0005 µM
Cc1cn([C@H]2C[C@H](N=C(N)n3cncn3)[C@@H](CO)O2)c(=O)[nH]c1=O,-,ROD,CEM,>20 µg/mL
Nc1ccn([C@@H]2O[C@H](CO)C[C@@H]2F)c(=O)n1,-,ROD,MT-4,2.51 µg/mL
Cc1cn([C@@H]2C=C[C@H](COC(=O)OC[C@H]3O[C@@H](n4cc(C)c(=O)[nH]c4=O)C[C@@H]3N=[N+]=[N-])O2)c(=O)[nH]c1=O,-,ROD,MT-4,0.0038 µM
CCOCn1c(Sc2cc(C)cc(C)c2)c(CC)c(=O)[nH]c1=S,-,EHO,MT-4,>100 µM
Nc1nc2c(ncn2CCOCP(=O)(O)O)c(=O)[nH]1,-,-,MT-4,0.2 µM
C=COC(=O)OC[C@H]1O[C@@H](n2cc(C)c(=O)[nH]c2=O)C[C@@H]1N=[N+]=[N-],-,ROD,MT-4,0.009 µM
CCc1c(Sc2cccc3ccccc23)nc(SCC(=O)c2ccc(F)cc2)[nH]c1=O,-,ROD,MT-4,>23.11 µM
Cc1cn([C@H]2C[C@H](NC(N)=O)[C@@H](CO)O2)c(=O)[nH]c1=O,-,ROD,CEM,>100 µg/mL
CC(C)(C)NC(=O)[C@@H]1C[C@@H]2CCCC[C@@H]2CN1C[C@@H](O)[C@H](Cc1ccccc1)NC(=O)[C@H](CC(N)=O)NC(=O)c1ccc2ccccc2n1,-,ROD,MT-4,<0.0008 µg/mL
CCOP(=O)(O)COCCn1nnc2c(N)ncnc21,-,-,MT-4,>331 µM
COc1ccc(CN[C@@H](C(=O)N[C@H](C(=O)NCc2ccc(OC)cc2O)C(C)C)[C@H](O)[C@H](Cc2ccccc2)NC(=O)[C@@H](NC(=O)OCc2ccccc2)C(C)C)cc1,-,EHO,MT-4,0.06 µM
O=c1[nH]cnc2c1ncn2[C@H]1CC[C@@H](CO)O1,-,EHO Laboratory isolate,MT-2,2.8 µM
Cc1c(Sc2ccccc2)n(COCCO)c(=O)[nH]c1=O,-,ROD,MT-4,>405.8 µM
CCC(C)Nc1nc(N)nc2c1[nH]c[n+]2C[C@@H](C)OCP(=O)(O)O,-,ROD,MT-4,25 ± 15 µg/mL
O=C(c1ccccc1)c1ccc2c(c1)nc1n2C(c2c(F)cccc2Cl)SC1,-,ROD,MT-4,>26.7 µM
COc1c(O)c(Br)c2c(c1OC)-c1c(c(Br)c(O)c(OC)c1OC)C[C@H](C)[C@H](C)C2,-,ROD,MT-4,>18 µM
CCc1c(Sc2cccc3ccccc23)nc(SCC(=O)c2ccc(F)cc2F)[nH]c1=O,-,ROD,MT-4,>31.2 µM
CC(C)Nc1cccnc1N1CCN(C(=O)c2cc3cc(NS(C)(=O)=O)ccc3[nH]2)CC1,RT-S102L,EHO,MT-4,>47.3 µM
Nc1ncnc2c1nnn2CCOCP(=O)(O)O,-,-,MT-4,91 µM
CC(C)=CCN1Cc2cccc3[nH]c(=S)n(c23)C[C@@H]1C,-,CBL-20,MT-4,>105 µM
O=C(O)C1=CC(=C(c2ccc(O)c(C(=O)O)c2)c2ccc(O)c(C(=O)O)c2)C=CC1=O,-,ROD,MT-4,2.26 µg/mL
Nc1nc(NC2CCCC2)c2ncn(CCOCP(=O)(O)O)c2n1,-,ROD,CEM,1.75 µg/mL
CCc1c(Sc2ccccc2)n(COCc2ccccc2)c(=O)[nH]c1=O,-,ROD,MT-4,>30 µM
O=C(O)CCC(=O)O,-,ROD,MT-4,>25 µM
Cc1cn([C@H]2C[C@H](N=[N+]=[N-])[C@@H](CO)O2)c(=O)[nH]c1=O,-,ROD,MT-4,0.0028 µM
Fc1cccc(Cl)c1C1SCc2nc3ccc(C(F)(F)F)cc3n21,-,ROD,MT-4,>15 µM
Fc1cccc(Cl)c1C1OCc2nc3ccccc3n21,-,ROD,MT-4,>44 µM
Cc1cn([C@H]2C[C@H](N=[N+]=[N-])[C@@H](COC(=O)CCC(=O)OC[C@H]3O[C@@H]4O[C@H]5[C@H](O)[C@@H](O)[C@@H](O[C@H]6[C@H](O)[C@@H](O)[C@@H](O[C@H]7[C@H](O)[C@@H](O)[C@@H](O[C@H]8[C@H](O)[C@@H](O)[C@@H](O[C@H]9[C@H](O)[C@@H](O)[C@@H](O[C@H]%10[C@H](O)[C@@H](O)[C@@H](O[C@H]3[C@H](O)[C@H]4O)O[C@@H]%10CO)O[C@@H]9CO)O[C@@H]8CO)O[C@@H]7CO)O[C@@H]6CO)O[C@@H]5CO)O2)c(=O)[nH]c1=O,-,ROD,MT-4,0.127 µg/mL
Cc1c(O)cccc1C(=O)N[C@@H](CSc1ccccc1)[C@H](O)CN1C[C@H]2CCCC[C@H]2C[C@H]1C(=O)NC(C)(C)C,-,EHO Laboratory isolate,MT-2,0.02 µM
O=C(c1ccccc1)c1ccc2nc3n(c2c1)C(c1c(Cl)cccc1Cl)SC3,-,ROD,MT-4,>1.3 µM
CN(C)CCCNc1nc(N)nc2c1ncn2CCOCP(=O)(O)O,-,ROD,MT-4,7.03 µg/mL
COc1c(O)c(Cl)c2c(c1OC)-c1c(c(Cl)c(O)c(OC)c1OC)C[C@H](C)[C@H](C)C2,-,ROD,MT-4,>22 µM
Fc1cccc(F)c1C1SCc2nc3ccc(C(F)(F)F)cc3n21,-,ROD,MT-4,>351 µM
C[C@H](C[n+]1c[nH]c2c(N(C)C)nc(N)nc21)OCP(=O)(O)O,-,ROD,CEM,9 ± 1.4 µg/mL
C1CNCCNCCCNCCNC1,-,ROD,MT-4,54 µg/mL
CCNc1nc(N(C)C)nc2c1[nH]c[n+]2C[C@@H](C)OCP(=O)(O)O,-,ROD,MT-4,4.65 ± 2.59 µg/mL
CC(=O)c1ccc(C)cc1NC(C(N)=O)c1c(Cl)cccc1Cl,RT-S102L,EHO,MT-4,13.4 µM
O[C@H]1[C@H](O)[C@@H](O)CN2CC[C@H](O)[C@H]12,-,ROD,MT-4,28.6 µg/mL

A second listing of 4 rows from above:

compound	mutations	strain or isolate	cells	result
Fc1cccc(Cl)c1C1SCc2nc3ccc(C(F)(F)F)cc3n21	-	ROD	MT-4	>15 µM
O=c1ccn([C@H]2CC[C@@H](CO)O2)c(=O)[nH]1	-	ROD	MT-4	43 µg/mL
Nc1ncnc2c1ncn2CCOCP(=O)(O)O	-	-	MT-4	3.7 µM
CCN(C)c1nc(N)nc2c1ncn2CCOCP(=O)(O)O	-	ROD	CEM	0.2 µg/mL

Blank or dashed fields: not listed here. Neighbouring rows are from separate reports.